Compound potency records, mixed from different reports. Data source: NIAID ChemDB in PubChem.

All rows: whole-cell or culture tests; organism: Aspergillus niger

A number after MIC or MFC names an inhibition level or a share of isolates. Zones are inhibition diameters on agar. Lines come from different laboratories, so protocols vary. Percent inhibition refers to the dose given; in toxicity tests it is the harm to the cells. ECn: concentration that inhibits the pathogen or its effect by n%.

O=C(Nc1nc2ccccc2s1)c1cn[nH]c1C(=O)c1ccc(Cl)cc1 ; method: broth dilution ; measure: MFC ; value: 5 µg/mL
CSC1=NC(c2ccc(O)cc2)C(C#N)=C(N)N1 ; strain: MTCC 282 ; method: agar diffusion ; measure: zone ; tested at: 25 µg/mL ; value: 14 mm
COc1ccc(C2CC(=O)C3=C(C2)OC2=C(C(=O)CC(c4ccc(OC)c(OC)c4)C2)C3c2ccc(C3C4=C(CC(c5ccc(OC)c(OC)c5)CC4=O)OC4=C3C(=O)CC(c3ccc(OC)c(OC)c3)C4)cc2)cc1OC ; strain: ATCC 10949 ; method: agar diffusion ; measure: zone ; tested at: 40 µg/disc ; value: 0 mm
O=C(CSc1nc2ccccc2[nH]1)c1c([O-])on[n+]1-c1ccc(Cl)cc1 ; method: agar diffusion ; measure: EC50 ; value: >20 µg/mL
O=C1CCCC2=C1C(c1cccc(C3C4=C(CCCC4=O)OC4=C3C(=O)CCC4)c1)C1=C(CCCC1=O)O2 ; strain: ATCC 10949 ; method: agar diffusion ; measure: zone ; tested at: 140 µg/disc ; value: 7 mm
COc1ccc(Cc2cn(Cc3ccc(O)cc3)c(=N)n2C)cc1 ; strain: ATCC 9642 ; measure: MIC ; value: >100 µg/mL
C[C@@H](c1ncncc1F)[C@](O)(Cn1cncn1)c1ccc(F)cc1F ; method: broth dilution ; measure: MIC50 ; value: 2 µg/mL
Brc1ccc(CO/N=C2/c3ccccc3OCC2n2cncn2)cc1 ; strain: ATCC 16401 ; measure: MFC ; value: 16 µg/mL
CSC1=NC(c2cccc3cc4ccccc4cc23)C(C#N)=C(N)N1 ; strain: MTCC 282 ; method: agar diffusion ; measure: zone ; tested at: 100 µg/mL ; value: 16 mm
C=C(C(=O)O[C@H]1C[C@]2(C)[C@H]([C@@H](CO)CC[C@H]2O)[C@H]2OC(=O)C(=C)[C@@H]21)C(O)CO ; strain: ATCC 6275 ; measure: MFC ; value: 1 µg/mL
CSC1=NC(c2cccc([N+](=O)[O-])c2)C(C#N)=C(N)N1 ; strain: MTCC 282 ; method: agar diffusion ; measure: zone ; tested at: 100 µg/mL ; value: 16 mm
C[C@H]1[C@H](O)[C@@H](C)/C=C/C=C/C=C/C=C/C=C/C=C/C=C/[C@H](O[C@@H]2O[C@H](C)[C@@H](O)[C@H](N)[C@@H]2O)C[C@@H]2O[C@](O)(C[C@@H](O)C[C@@H](O)CC[C@H](O)[C@@H](O)C[C@@H](O)CC(=O)O[C@H]1C)C[C@H](O)[C@H]2C(=O)O ; strain: Clinical isolate ; method: broth dilution / absorbance ; measure: MIC99 ; value: 0.39 µM
C[C@@H]1C/C=C/C=C/C=C/C=C/[C@H](OC2O[C@H](C)[C@@H](O)[C@H](N)[C@@H]2O)CC2O[C@](O)(C[C@@H](O)C[C@H]3O[C@@H]3/C=C/C(=O)O1)C[C@H](O)[C@H]2C(=O)O ; strain: Species complex ; measure: MIC50 ; value: 32 µg/mL
Cc1ccc(-[n+]2noc([O-])c2C(=O)CSc2nc3ccccc3[nH]2)cc1C ; method: agar diffusion ; measure: EC50 ; value: >20 µg/mL
COc1ccc(/C=C2/SC(=O)N(CC(=O)Nc3nc4ccc(SC#N)cc4s3)C2=O)cc1 ; strain: MTCC 282 ; method: broth dilution / visual reading ; measure: MIC ; value: 1000 µg/mL
COc1ccc(C2CC(=O)C3=C(C2)OC2=C(C(=O)CC(c4ccc(OC)c(OC)c4)C2)C3c2cccc(C3C4=C(CC(c5ccc(OC)c(OC)c5)CC4=O)OC4=C3C(=O)CC(c3ccc(OC)c(OC)c3)C4)c2)cc1OC ; strain: ATCC 10949 ; method: agar diffusion ; measure: zone ; tested at: 20 µg/mL ; value: 0 mm
N#CSc1ccc2nc(NC(=O)CN3C(=O)S/C(=C/c4ccccc4)C3=O)sc2c1 ; strain: MTCC 282 ; method: broth dilution / visual reading ; measure: MIC ; value: >1000 µg/mL
CC1(C)CCC2=C(C1=O)C(c1cccc(C3C4=C(CCC(C)(C)C4=O)OC4=C3C(=O)C(C)(C)CC4)c1)C1=C(CCC(C)(C)C1=O)O2 ; strain: ATCC 10949 ; method: agar diffusion ; measure: zone ; tested at: 20 µg/mL ; value: 0 mm
C/C=C/CN=C(N)NCCCCCCCN1CCCCCCCCN=C(N)NC1=O ; measure: MIC50 ; value: 18 µM
Clc1ccc(CO/N=C2/c3ccc(Cl)cc3OCC2n2cnnc2)c(Cl)c1 ; strain: ATCC 16401 ; measure: MFC ; value: >64 µg/mL
C=C[C@]1(C)C[C@H](OC(=O)C(=C)C(O)CO)[C@H]2C(=C)C(=O)O[C@@H]2[C@H]1C(=C)CO ; strain: ATCC 6275 ; measure: MFC ; value: 0.5 µg/mL
CS(=O)(=O)c1nc(N)c(C#N)c(-c2cccc([N+](=O)[O-])c2)n1 ; strain: MTCC 282 ; method: agar diffusion ; measure: zone ; tested at: 100 µg/mL ; value: 20 mm
COc1ccc(C=O)cc1OCC(O)(Cn1cncn1)c1ccc(F)cc1F ; strain: ATCC 16404 ; method: broth dilution ; measure: MIC50 ; value: 128 µg/mL
CC1=C(Cl)C(O)=CC(=O)C12Oc1cc(O)c(Cl)c(C)c1C2=O ; strain: MTCC 282 ; method: agar diffusion ; measure: zone ; tested at: 100 µg/mL ; value: 22 mm
O=C(CSc1nc2ccccc2[nH]1)c1c([O-])on[n+]1-c1cccc(Cl)c1 ; method: agar diffusion ; measure: EC50 ; value: >20 µg/mL
CCC(C)CC(C)CCCCCCCCC(=O)N[C@H]1C[C@@H](O)[C@H](NCCN)NC(=O)[C@@H]2[C@@H](O)CCN2C(=O)[C@H]([C@H](O)CCN)NC(=O)[C@H]([C@H](O)[C@@H](O)c2ccc(O)cc2)NC(=O)[C@@H]2C[C@@H](O)CN2C(=O)[C@H]([C@@H](C)O)NC1=O ; method: broth dilution ; measure: MEC ; value: 0.03 µg/mL
C=CCSS(=O)CC=C ; strain: ATCC 16888 ; method: broth dilution ; measure: MIC90 ; value: 500 µg/mL
CSC1=NC(c2ccccc2[N+](=O)[O-])C(C#N)=C(N)N1 ; strain: MTCC 282 ; method: agar diffusion ; measure: zone ; tested at: 50 µg/mL ; value: 14 mm
c1coc(-c2n[nH]c(COc3ncnc4ccccc34)n2)c1 ; strain: MTCC 282 ; measure: MIC100 ; value: 6.25 µg/mL
CCCCCOc1ccc(-c2ccc(-c3ccc(C(=O)N[C@H]4C[C@@H](O)[C@@H](O)NC(=O)[C@@H]5[C@@H](O)[C@@H](C)CN5C(=O)[C@H]([C@H](C)O)NC(=O)[C@H]([C@H](O)[C@@H](O)c5ccc(O)cc5)NC(=O)[C@@H]5C[C@@H](O)CN5C(=O)[C@H]([C@H](C)O)NC4=O)cc3)cc2)cc1 ; method: broth dilution ; measure: MEC ; value: <0.06 µg/mL
COc1ccc(-c2n[nH]c(COc3ncnc4ccccc34)n2)cc1OC ; strain: MTCC 282 ; measure: MIC100 ; value: 6.25 µg/mL
NN(Cc1ccccc1)CC(O)(Cn1cncn1)c1ccc(F)cc1F ; strain: ATCC 9042 ; measure: MIC80 ; value: 4 µg/mL
C=C(C(=O)O[C@H]1C[C@]2(C)[C@H]([C@@H](CO)CC[C@H]2O)[C@@H](O)[C@@H]1C(=C)C(=O)OC)C(O)COC(C)=O ; strain: ATCC 6275 ; measure: MFC ; value: 2 µg/mL
Cc1nc(OCc2nc(-c3ccc(Cl)cc3)n[nH]2)c2ccccc2n1 ; strain: MTCC 282 ; measure: MIC100 ; value: 25 µg/mL
COc1cc(Cl)ccc1-[n+]1noc([O-])c1C(=O)CSc1nc2ccccc2[nH]1 ; method: agar diffusion ; measure: EC50 ; value: >20 µg/mL
Clc1ccc2c(c1)OCC(n1cncn1)/C2=N\OCc1ccc(Cl)c(Cl)c1 ; strain: ATCC 16401 ; measure: MFC ; value: 64 µg/mL
O=C1CCCC2=C1C(c1ccc(C3C4=C(CCCC4=O)OC4=C3C(=O)CCC4)cc1)C1=C(CCCC1=O)O2 ; strain: ATCC 10949 ; method: agar diffusion ; measure: zone ; tested at: 20 µg/mL ; value: 0 mm
COc1ccc(C2N=C(SC)NC(N)=C2C#N)cc1 ; strain: MTCC 282 ; method: agar diffusion ; measure: zone ; tested at: 25 µg/mL ; value: 13 mm
COc1ccccc1-[n+]1noc([O-])c1C(=O)CSc1nc2ccccc2[nH]1 ; method: agar diffusion ; measure: inhibition ; tested at: 20 µg/mL ; value: 0%
O=C1OCC(c2cccs2)=C1c1ccc(OCC(O)(Cn2cncn2)c2ccc(F)cc2F)cc1 ; strain: ATCC 16404 ; method: broth dilution ; measure: MIC50 ; value: 8 µg/mL
C/C=C/[C@@H]1OC(=O)C=C[C@@H]1O ; measure: MIC50 ; value: <1 µg/mL
COc1cc(/C=C2\SC(=S)NC2=O)ccc1OCC(O)(Cn1cncn1)c1ccc(F)cc1F ; strain: ATCC 16404 ; method: broth dilution ; measure: MIC50 ; value: 16 µg/mL
CS(=O)(=O)c1nc(N)c(C#N)c(-c2ccccc2O)n1 ; strain: MTCC 282 ; method: agar diffusion ; measure: zone ; tested at: 100 µg/mL ; value: 20 mm
COc1cc(-c2n[nH]c(COc3ncnc4ccccc34)n2)cc(OC)c1OC ; strain: MTCC 282 ; measure: MIC100 ; value: 6.25 µg/mL
O=C(O)Cc1ccc(OCC(O)(Cn2cncn2)c2ccc(F)cc2F)cc1 ; strain: ATCC 16404 ; method: broth dilution ; measure: MIC50 ; value: 128 µg/mL

For reference, 6 entries again:

COc1ccc(C2N=C(SC)NC(N)=C2C#N)cc1 ; strain: MTCC 282 ; method: agar diffusion ; measure: zone ; tested at: 25 µg/mL ; value: 13 mm
CSC1=NC(c2cccc([N+](=O)[O-])c2)C(C#N)=C(N)N1 ; strain: MTCC 282 ; method: agar diffusion ; measure: zone ; tested at: 100 µg/mL ; value: 16 mm
Clc1ccc2c(c1)OCC(n1cncn1)/C2=N\OCc1ccc(Cl)c(Cl)c1 ; strain: ATCC 16401 ; measure: MFC ; value: 64 µg/mL
COc1ccc(C=O)cc1OCC(O)(Cn1cncn1)c1ccc(F)cc1F ; strain: ATCC 16404 ; method: broth dilution ; measure: MIC50 ; value: 128 µg/mL
O=C1CCCC2=C1C(c1ccc(C3C4=C(CCCC4=O)OC4=C3C(=O)CCC4)cc1)C1=C(CCCC1=O)O2 ; strain: ATCC 10949 ; method: agar diffusion ; measure: zone ; tested at: 20 µg/mL ; value: 0 mm
O=C1CCCC2=C1C(c1cccc(C3C4=C(CCCC4=O)OC4=C3C(=O)CCC4)c1)C1=C(CCCC1=O)O2 ; strain: ATCC 10949 ; method: agar diffusion ; measure: zone ; tested at: 140 µg/disc ; value: 7 mm